Assay [1] relates to HCV replicon (HCV 1b-377-neo replicon cells, Huh7). Kind of assay: HCV replicon cell-based FRET assay. The following applies: activity range symbols. The procedure: HCV Replion assays were utilized in the present invention, and were prepared, conducted and validated as follows:
An HCV replicon whole cell system was established as described by Lohmann V, Korner F, Koch J, Herian U, Theilmann L, Bartenschlager R., Science 285(5424): 110–3 (1999). This system enabled us to evaluate the effects of our HCV Protease compounds on HCV RNA replication. Briefly, using the HCV strain 1B sequence described in the Lohmann paper (Assession number: AJ238799), an HCV cDNA was synthesized by Operon Technologies, Inc. (Alameda, Calif.), and the full-length replicon was then assembled in plasmid pGem9zf(+) (Promega, Madison, Wis.) using standard molecular biology techniques. The replicon consists of (i) the HCV 5′ UTR fused to the first 12 amino acids of the capsid protein, (ii) the neomycin phosphotransferase gene (neo), (iii) the IRES from encephalomyocarditis virus (EMCV), and (iv) HCV NS3 to NS5B genes and the HCV 3′ UTR. Plasmid DNAs were linearized with ScaI and RNA transcripts were synthesized in vitro using the T7 MegaScript transcription kit (Ambion, Austin, Tex.) according to manufacturer's directions. To generate cell lines, 4×10^6 Huh-7 cells (kindly provided by R. Bartenschlager and available from Health Science Research Resources Bank, Japan Health Sciences Foundation) were electroporated (GenePulser System, Bio-Rad) with 10 microgram(“μg”) of RNA transcript and plated into 100-mm dishes. After 24 h, selective media containing 1.0 milligrams/milliliter (“mg/ml”) G418 was added and media was changed every 3 to 5 days. Approximately 4 weeks after electroporation, small colonies were visible which were isolated and expanded for further analysis. These cell lines were maintained at 37° C., 5% CO2, 100% relative humidity in DMEM (Cat# 11965-084) Gibco-BRL, Rockville, Md., with 10% heat inactivated calf serum (Sigma), 10 ml of 100× penicillin/streptomycin (Cat# 15140-122) Gibco-BRL, Rockville, Md., Geneticin (Cat# 10131-027) Gibco-BRL, Rockville, Md. at 1 mg/ml. One of the cell lines (deposited as ATCC Accession No. PTA-4583 in the American Type Culture Collection) which had approximately 3,000 copies of HCV replicon RNA/cell was used for development of the assay (HCV 1b-377-neo replicon cells).
Huh7 cells, constitutively expressing the HCV replicon, were grown in Dulbecco's Modified Eagle Media (DMEM) containing 10% Fetal calf serum (FCS) and 1 mg/ml G418 (Gibco-BRL). Cells were seeded the night before (1.5×10^4 cells/well) in 96-well tissue-culture sterile plates. Compound and no compound controls were prepared in DMEM containing 4% FCS, 1:100 Penicillin/Streptomysin, 1:100 L-glutamine and 5% DMSO in the dilution plate (0.5% DMSO final concentration in the assay). Compound/DMSO mixes were added to the cells and incubated for 4 days at 37° C. After 4 days, cells were first assessed for cytotoxicity using alamar Blue (Trek Diagnotstic Systems) for a CC50 reading. The toxicity of compound (CC50) was determined by adding 1/10th volume of alamar Blue to the media incubating the cells. After 4 hr, the fluorescence signal from each well was read, with an excitation wavelength at 530 nm and an emission wavelength of 580 nm, using the Cytofluor Series 4000 (Perspective Biosystems). Plates were then rinsed thoroughly with Phosphate-Buffered Saline (PBS) (3 times 150 μl). The cells were lysed with 25 μl of a lysis assay reagent containing an HCV protease substrate (5× cell Luciferase cell culture lysis reagent (Promega #E153A) diluted to 1× with distilled water, NaCl added to 150 mM final, the FRET peptide diluted to 10 μM final from a 2 mM stock in 100% DMSO). The HCV protease substrate (FRET peptide; AnaSpec, Inc. cat #22991, described by Taliani et al. in Anal. Biochem. 240(2):60–67 (1996)) contains a fluorescence donor, EDANS, near one end of the peptide and an acceptor, DABCYL, near the other end. […]
(In general: In antiviral work, replicon cells carry a viral genome segment that copies itself.)

Chains of the proteins cited; added tags and fusions are not shown. Lines headed by an entry give the natural chain unless they say otherwise; changes in a name come on top. Residues count along the entry.
UniProt P27958, 1027-1657 C1454S limits assumed, stated change not applied: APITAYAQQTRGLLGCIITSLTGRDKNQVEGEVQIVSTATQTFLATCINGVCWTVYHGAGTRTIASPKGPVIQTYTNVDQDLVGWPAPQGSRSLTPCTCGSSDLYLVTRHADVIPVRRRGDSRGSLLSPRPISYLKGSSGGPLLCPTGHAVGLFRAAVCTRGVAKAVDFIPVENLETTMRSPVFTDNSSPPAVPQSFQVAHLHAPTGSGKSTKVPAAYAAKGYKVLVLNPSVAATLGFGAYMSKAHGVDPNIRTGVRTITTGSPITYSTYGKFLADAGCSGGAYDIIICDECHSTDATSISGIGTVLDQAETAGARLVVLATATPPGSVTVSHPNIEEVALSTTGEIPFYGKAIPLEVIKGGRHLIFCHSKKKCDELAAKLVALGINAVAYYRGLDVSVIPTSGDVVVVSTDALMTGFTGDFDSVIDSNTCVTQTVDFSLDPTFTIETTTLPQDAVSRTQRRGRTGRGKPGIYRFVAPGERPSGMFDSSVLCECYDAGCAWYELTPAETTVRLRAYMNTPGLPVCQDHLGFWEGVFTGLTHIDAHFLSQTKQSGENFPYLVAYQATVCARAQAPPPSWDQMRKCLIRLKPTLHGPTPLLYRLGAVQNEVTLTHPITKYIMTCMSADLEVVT

Assay [2] addresses HCV NS3/4A protease complex, BMS strain (genotype 1a) (UniProt P27958, C1454S/C1711G, species not given/STRAIN_BMS). Kind of assay: Recombinant HCV NS3/4A protease complex FRET peptide assay, BMS strain. As to conditions: NS3/4A BMS strain; activity range symbols. It counts as biochemical. An excerpt: Recombinant HCV NS3/4A Protease Complex FRET Peptide Assay
The purpose of this in vitro assay was to measure the inhibition of HCV NS3 protease complexes, derived from the BMS strain, H77C strain or J416S strain, as described below, by compounds of the present invention. This assay provides an indication of how effective compounds of the present invention would be in inhibiting HCV proteolytic activity.
Serum from an HCV-infected patient was obtained from Dr. T. Wright, San Francisco Hospital. An engineered full-length cDNA (compliment deoxyribonucleic acid) template of the HCV genome (BMS strain) was constructed from DNA fragments obtained by reverse transcription-PCR (RT-PCR) of serum RNA (ribonucleic acid) and using primers selected on the basis of homology between other genotype 1a strains. From the determination of the entire genome sequence, a genotype 1a was assigned to the HCV isolate according to the classification of Simmonds et al. (See P Simmonds, K A Rose, S Graham, S W Chan, F McOmish, B C Dow, E A Follett, P L Yap and H Marsden, J. Clin. Microbiol., 31(6), 1493–1503 (1993)). […] The infectious clones, H77C (1a genotype) and J4L6S (1b genotype) were obtained from R. Purcell (NIH) and the sequences are published in Genbank (AAB67036, see Yanagi, M., Purcell, R. H., Emerson, S. U. and Bukh, J. Proc. Natl. Acad. Sci. U.S.A. 94(16), 8738–8743 (1997); AF054247, see Yanagi, M., St Claire, M., Shapiro, M., Emerson, S. U., Purcell, R. H. and Bukh, J, Virology 244 (1), 161–172. (1998)).
The H77C and J4L6S strains were used for production of recombinant NS3/4A protease complexes. DNA encoding the recombinant HCV NS3/4A protease complex (amino acids 1027 to 1711) for these strains were manipulated as described by P. Gallinari et al. (see Gallinari P, Paolini C, Brennan D, Nardi C, Steinkuhler C, De Francesco R. Biochemistry. 38(17):5620–32, (1999)). Briefly, a three-lysine solubilizing tail was added at the 3′-end of the NS4A coding region. The cysteine in the P1 position of the NS4A-NS4B cleavage site (amino acid 1711) was changed to a glycine to avoid the proteolytic cleavage of the lysine tag. Furthermore, a cysteine to serine mutation was introduced by PCR at amino acid position 1454 to prevent the autolytic cleavage in the NS3 helicase domain. The variant DNA fragment was cloned in the pET21b bacterial expression vector (Novagen) and the NS3/4A complex was expressed in Escherichia coli strain BL21 (DE3) (Invitrogen) following the protocol described by P. Gallinari et al. (see Gallinari P, Brennan D, Nardi C, Brunetti M, Tomei L, Steinkuhler C, De Francesco R., J. Virol. 72(8):6758–69 (1998)) with modifications. Briefly, NS3/4A expression was induced with 0.5 mM Isopropyl β-D-1-thiogalactopyranoside (IPTG) for 22 hr at 20° C. A typical fermentation (10 L) yielded approximately 80 g of wet cell paste. The cells were resuspended in lysis buffer (10 mL/g) consisting of 25 mM N-(2-Hydroxyethyl)piperazine-N′-(2-Ethane Sulfonic acid) (HEPES), pH7.5, 20% glycerol, 500 mM Sodium Chloride (NaCl), 0.5% Triton-X100, 1 microgram/milliliter (“μg/mL”) lysozyme, 5 mM Magnesium Chloride (MgCl2), 1 ug/ml DnaseI, 5 mM β-Mercaptoethanol (βME), Protease inhibitor—Ethylenediamine Tetraacetic acid (EDTA) free (Roche), homogenized and incubated for 20 mins at 4° C. The homogenate was sonicated and clarified by ultra-centrifugation at 235000 g for 1 hr at 4° C. Imidazole was added to the supernatant to a final concentration of 15 mM and the pH adjusted to 8.0. The crude protein extract was loaded on a Nickel-Nitrilotriacetic acid (Ni-NTA) column pre-equilibrated with buffer B (25 mM HEPES, pH8.0, 20% glycerol, 500 mM NaCl, 0.5% Triton-X100, 15 mM imidazole, 5 mM βME). The sample was loaded at a flow rate of 1 mL/min. The column was washed with 15 column volumes of buffer C (same as buffer B except with 0.2% Triton-X100). The protein was eluted with 5 column volumes of buffer D (same as buffer C except with 200 mM Imidazole). […]

In the case of `COc1ccc2c(O[C@@H]3C[C@H]4C(=O)N[C@]5(C(=O)NS(=O)(=O)C6CC6)C[C@H]5/C=C\COCCC[C@H](NC(=O)OC(C)(C)C)C(=O)N4C3)nc(-c3ccccc3)cc2c1`, the 50% effective concentration (EC50) (commonly the midpoint of the concentration-response curve) in assay [1] is less than 50 nM. The IC50 (usually the midpoint of a concentration-inhibition curve) in assay [2] is less than 50 nM.

Consider `COc1ccc2c(O[C@@H]3C[C@H]4C(=O)N[C@]5(C(=O)NS(=O)(=O)C6CC6)C[C@H]5/C=C\CCCCC[C@H](NC(=O)OC(C)(C)C)C(=O)N4C3)nc(-c3ccccc3)cc2c1`, for which, in assay [1], the concentration for a half-maximal effect (EC50) was less than 50 nM. For the same molecule, in assay [2], the IC50 is less than 50 nM.

In assay [1], `COc1ccc2c(O[C@@H]3C[C@H]4C(=O)N[C@]5(C(=O)NS(=O)(=O)C6CC6)C[C@H]5/C=C\CCCOC[C@H](NC(=O)OC(C)(C)C)C(=O)N4C3)nc(-c3ccccc3)cc2c1` registered a concentration giving a half-maximal response (EC50) of less than 50 nM. For the same molecule, the 50% inhibitory concentration (IC50) in assay [2] is less than 50 nM.

On to `CC(C)(OC(=O)N[C@H]1CCCCC/C=C\[C@@H]2C[C@@]2(C(=O)NS(=O)(=O)C2CC2)NC(=O)[C@@H]2C[C@@H](Oc3nccc4ccccc34)CN2C1=O)C(F)F`, for which the concentration for a half-maximal effect (EC50) in assay [1] was less than 50 nM. In addition, in assay [2], the IC50 is less than 50 nM.

In the case of `COc1cc2ccnc(O[C@@H]3C[C@H]4C(=O)N[C@]5(C(=O)NS(=O)(=O)C6CC6)C[C@H]5/C=C\CCCSC[C@H](NC(=O)OC(C)(C)C)C(=O)N4C3)c2cc1Cl`, the concentration giving a half-maximal response (EC50) in assay [1] was less than 50 nM. Also, the concentration for half-maximal inhibition (IC50) in assay [2] is less than 50 nM.

With `COc1cc2ccnc(O[C@@H]3C[C@H]4C(=O)N[C@]5(C(=O)NS(=O)(=O)C6CC6)C[C@H]5/C=C\CCCCC[C@H](NC(=O)OC(C)(C)C)C(=O)N4C3)c2cc1Cl`, the EC50 in assay [1] is less than 50 nM. Further, the half-inhibitory concentration (IC50) in assay [2] is less than 50 nM.

`COc1ccc2c(O[C@@H]3C[C@H]4C(=O)N[C@]5(C(=O)NS(=O)(=O)C6CC6)C[C@H]5/C=C\COCCC[C@H](NC(=O)OC(C)(C)C)C(=O)N4C3)nc(-c3ccc(N(C)C)cc3)cc2c1`: in assay [1], the EC50 is less than 50 nM. The IC50 in assay [2] was less than 50 nM.

Turning to `COc1ccc2c(O[C@@H]3C[C@H]4C(=O)N[C@]5(C(=O)NS(=O)(=O)C6CC6)C[C@H]5/C=C\CCCOC[C@H](NC(=O)OC(C)(C)C)C(=O)N4C3)nc(-c3ccc(N(C)C)cc3)cc2c1`, the EC50 in assay [1] was less than 50 nM. Moreover, the IC50 in assay [2] was less than 50 nM.

Turning to `COc1ccc2c(O[C@@H]3C[C@H]4C(=O)N[C@]5(C(=O)NS(=O)(=O)C6CC6)C[C@H]5/C=C\COCCC[C@H](NC(=O)OC(C)(C)CCl)C(=O)N4C3)nccc2c1`, the EC50 in assay [1] was in the range of 50 to 500 nM. Besides, the IC50 in assay [2] is less than 50 nM.

In assay [1], `CC(C)(C)OC(=O)N[C@H]1CCCCC/C=C\[C@@H]2C[C@@]2(C(=O)NS(=O)(=O)C2CC2)NC(=O)[C@@H]2C[C@@H](Oc3nc(-c4ccccc4)cc4ccccc34)CN2C1=O` [Compound 58, [(Z)-(1S,4R,14S,18R)-4-cyclopropanesulfonylaminocarbonyl-2,15-dioxo-18-(3-phenyl-isoquinolin-1-yloxy)-3,16-diaza-tricyclo[14.3.0.0^4,6]nonadec-7-en-14-yl]-carbamic acid tert-butyl ester] registered a concentration for a half-maximal effect (EC50) of less than 50 nM. Moreover, in assay [2], the half-inhibitory concentration (IC50) is less than 50 nM.

For `COc1ccc2c(O[C@@H]3C[C@H]4C(=O)N[C@]5(C(=O)NS(=O)(=O)C6CC6)C[C@H]5/C=C\CCCCC[C@H](NC(=O)OC(C)(C)C)C(=O)N4C3)nc(-c3ccc(N(C)C)cc3)cc2c1`, the concentration giving a half-maximal response (EC50) in assay [1] is less than 50 nM. The half-inhibitory concentration (IC50) in assay [2] was less than 50 nM.

Molecule `COc1ccc2c(O[C@@H]3C[C@H]4C(=O)N[C@]5(C(=O)NS(=O)(=O)C6CC6)C[C@H]5/C=C\COCCC[C@H](NC(=O)NC5CCCC5)C(=O)N4C3)nc(-c3ccccc3)cc2c1` displayed a concentration giving a half-maximal response (EC50) in assay [1] of less than 50 nM. In assay [2], the IC50 was less than 50 nM.

The values are drawn from patent US7173004B2, “Macrocyclic isoquinoline peptide inhibitors of hepatitis C virus” (Bristol-Myers Squibb Company, priority 2003, dated 2007).
